Assays:
[1] = biological target: HC[…]-3 ([…] CVF with 1 substitution, E1633H)
[2] = biological target: HC[…]-9 ([…] CVF with 5 substitutions from human C3, Q1571S, T1573S, N1576V, P1577Q, and R1578V)

B1: human Factor B (protein)
chain: TPWSLARPQGSCSLEGVEIKGGSFRLLQEGQALEYVCPSGFYPYPVQTRTCRSTGSWSTLKTQDQKTVRKAECRAIHCPRPHDFENGEYWPRSPYYNVSDEISFHCYDGYTLRGSANRTCQVNGRWSGQTAICDNGAGYCSNPGIPIGTRKVGSQYRLEDSVTYHCSRGLTLRGSQRRTCQEGGSWSGTEPSCQDSFMYDTPQEVAEAFLSSLTETIEGVDAEDGHGPGEQQKRKIVLDPSGSMNIYLVLDGSDSIGASNFTGAKKCLVNLIEKVASYGVKPRYGLVTYATYPKIWVKVSEADSSNADWVTKQLNEINYEDHKLKSGTNTKKALQAVYSMMSWPDDVPPEGWNRTRHVIILMTDGLHNMGGDPITVIDEIRDLLYIGKDRKNPREDYLDVYVFGVGPLVNQVNINALASKKDNEQHVFKVKDMENLEDVFYQMIDESQSLSLCGMVWEHRKGTDYHKQPWQAKISVIRPSKGHESCMGAVVSEYFVLTAAHCFTVDDKEHSIKVSVGGEKRDLEIEVVLFHPNYNINGKKEAGIPEFYDYDVALIKLKNKLKYGQTIRPICLPCTEGTTRALRLPPTTTCQQQKEELLPAQDIKALFVSEEEKKLTRKEVYIKNGDKKGSCERDAQYAPGYDKVKDISEVVTPRFLCTGGVSPYADPNTCRGDSGGPLIVHKRSRFIQVGVISWGVVDVCKNQKRQKQVPAHARDFHINLFQVLPWLKEKLQDEDLGFL
convertase stability (factor B cleavage assay, FIG. 4) [1]: contained one additional residue found in CVF than HC3-1496/1617, yet formed a much less stable convertase
factor B cleavage activity [1]: rapid factor B cleavage activity
convertase stability (factor B cleavage assay, FIG. 4) [2]: substituting the amino acid residues found in human C3 into these positions results in a very unstable convertase

— patent US20100179092
